From patent publication EP1184030A1, “Antibacterial composition comprising trimethylnorbornanylcyclohexanol derivatives” (Givaudan SA, priority 2000, dated 2002)

Assay: Odor value (vapour pressure divided by olfactive threshold)
Settings: vapour pressure (ng/L) divided by olfactive threshold value (ng/L)

Compared with `CCC(=CCC1CC=C(C)C1(C)C)CO` (stereo not shown) [Radjanol], `CC1=CCC(CCC(C)C(C)O)C1(C)C` (stereo not shown) [Sandalore] is lower in odor value: 53130 for the first, 5685 for the second.

First: CC1=CCC(/C=C\C(C)C(C)O)C1(C)C (stereo not shown) [Ebanol]
Second: Santalol
The odor value of the first is higher: 212557 for the first, 650 for the second.
